PubChem BioAssay AID624099 | ICCB-Longwood, 2012

- Aim: 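Knock-downs relieving repression by E2 of an HPV18 LCR luciferase reporter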 (primary screen)
- Cells: human C33A cervical carcinoma cells (HPV-negative) stably expressing BPV1 E2 and an HPV18 LCR luciferase reporter
- Reagent: siRNA pool against human genes, 40 nM
- Timing: 72 h
- Detection: 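Per-well luciferase luminescence, z-scored on each plate against the plate mean and SD with control wells left out, then averaged across three replicate plates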
- Scale: mean z-score and z-score: higher = stronger reporter signal, weaker E2 silencing
- Call rule: 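Hit if mean z-score reaches 2 and two or more of three replicate z-scores also reach 2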
Here is a random part of about 21,000 deposited reagents. Of all reagents, 497 (2.4%) got an active call. 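Higher z means weaker E2 silencing; only reporter increases were scored, and knock-downs that hurt cell survival may mask genuine repressor factors.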 Unmarked entries are inactive. The numbers tell different reagents against one gene apart. Reagent sequences are not shown.

gene | reagent no. | mean z-score | z-score, replicate A | z-score, replicate B | z-score, replicate C
USP39 (ubiquitin specific peptidase 39) | 1 | 1.42 | 1.82 | 1.41 | 1.04
LOC389778 (retired record) | 1 | -0.11 | -0.02 | -0.02 | -0.29
FCRLB (Fc receptor like B) | 1 | -0.07 | 0.17 | -0.16 | -0.23
C22orf46P (chromosome 22 open reading frame 46, pseudogene) | 1 | -0.1 | 0.65 | -0.54 | -0.41
PCDHGA5 (protocadherin gamma subfamily A, 5) | 1 | -0.85 | -1.53 | -0.59 | -0.41
SLC25A35 | 1 | -0.29 | -0.48 | -0.51 | 0.1
INPP5A (inositol polyphosphate-5-phosphatase A) | 1 | 0.52 | 0.76 | 0.79 | 0
ADAMTSL2 (ADAMTS like 2) | 1 | 0.78 | 0.62 | 0.84 | 0.88
ADCK5 (aarF domain containing kinase 5) | 1 | 0.48 | 0 | 0.84 | 0.6
DPF2 (double PHD fingers 2) | 1 | -0.07 | 0.08 | 0.03 | -0.3
LOC285770 (retired record) | 1 | 1.63 | 1.53 | 1.76 | 1.6
CLASP2 (cytoplasmic linker associated protein 2) | 1 | 0.87 | 0.76 | 0.92 | 0.91
LOC392583 (retired record) | 1 | -0.07 | -0.36 | 0.02 | 0.14
SERF1B (small EDRK-rich factor 1B) | 1 | -1.01 | -1 | -1.29 | -0.74
LOC440320 (retired record) | 1 | -0.19 | 0.27 | -0.38 | -0.46
CLEC4M (C-type lectin domain family 4 member M) | 1 | -0.04 | 0.1 | -0.24 | 0.03
CBX3 (chromobox 3) | 1 | -0.93 | -0.67 | -0.96 | -1.14
PER2 (period circadian regulator 2) | 1 | 1.08 | 0.78 | 1.27 | 1.19
DSPP (dentin sialophosphoprotein) | 1 | -0.51 | -0.51 | -0.65 | -0.38
HMGN3 (high mobility group nucleosomal binding domain 3) | 1 | 0 | -0.23 | 0.08 | 0.14
CATSPERH (catsper channel auxiliary subunit eta) | 1 | -2.07 | -2.03 | -1.9 | -2.27
COX16 (cytochrome c oxidase assembly factor COX16) | 1 | -0.03 | -0.07 | -0.5 | 0.47
ERAL1 (Era like 12S mitochondrial rRNA chaperone 1) | 1 | -1.5 | -1.14 | -1.61 | -1.76
SAMD8 (sterile alpha motif domain containing 8) | 1 | -1.84 | -2.1 | -2.23 | -1.19
DNAAF19 (dynein axonemal assembly factor 19) | 1 | 0.21 | 0 | 0.68 | -0.05
ANKUB1 (ankyrin repeat and ubiquitin domain containing 1) | 1 | 0.99 | 0.68 | 1.4 | 0.87
ANKUB1 (ankyrin repeat and ubiquitin domain containing 1) | 2 | -1.81 | -1.29 | -1.99 | -2.16
ANKS1A (ankyrin repeat and sterile alpha motif domain containing 1A) | 1 | -0.52 | -0.86 | -0.41 | -0.3
P3H2 (prolyl 3-hydroxylase 2) | 1 | 0.56 | 0.5 | 0.26 | 0.92
RPL5P7 (ribosomal protein L5 pseudogene 7) | 1 | 0.05 | 0.13 | -0.12 | 0.13
IYD (iodotyrosine deiodinase) | 1 | -1.8 | -2.1 | -2.01 | -1.29
IFNAR2 (interferon alpha and beta receptor subunit 2) | 1 | 0.12 | 0.08 | 0.09 | 0.19
COMMD7 (COMM domain containing 7) | 1 | -1.24 | -0.48 | -1.08 | -2.15
NPTX2 (neuronal pentraxin 2) | 1 | -0.93 | -0.76 | -0.97 | -1.06
F11-AS1 (F11 antisense RNA 1) | 1 | 0.26 | 0.1 | 0.23 | 0.45
OR13D1 (olfactory receptor family 13 subfamily D member 1) | 1 | -0.81 | -1.21 | -0.56 | -0.67
RSPO4 (R-spondin 4) | 1 | 0.02 | 0.23 | -0.11 | -0.06
PRIMA1 (proline rich membrane anchor 1) | 1 | 0.86 | 0.8 | 0.33 | 1.44
TRIP12 (thyroid hormone receptor interactor 12) | 1 | -0.63 | -0.36 | -0.79 | -0.73

Part of the list above, limited to “z-score, replicate B”.
LOC392583 (retired record)	0.02
SERF1B (small EDRK-rich factor 1B)	-1.29
LOC440320 (retired record)	-0.38
CLEC4M (C-type lectin domain family 4 member M)	-0.24
